PMC4029521
For part of these data: Tags and fusion partners may be left off the protein sequences shown. For part of these data: The exact form of at least one protein or probe is not confirmed.

What was measured:
[1] = test system: T1, AirR (Staphylococcus aureus NCTC8325); assay: EMSA; conditions: AirR 0.3-1.2 uM, probe 2 nM, recombinant protein, residues 1-207, label: digoxigenin, probe letters rebuilt from the primers and the genome
T1 sequence (looked up): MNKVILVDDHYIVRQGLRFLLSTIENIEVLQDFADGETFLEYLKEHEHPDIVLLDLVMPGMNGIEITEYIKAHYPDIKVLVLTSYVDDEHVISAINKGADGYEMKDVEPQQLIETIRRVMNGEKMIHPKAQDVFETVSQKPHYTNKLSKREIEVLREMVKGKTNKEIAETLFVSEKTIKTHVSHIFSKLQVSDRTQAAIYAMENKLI

[2] = test system: AirR-P (phosphorylated AirR) (Staphylococcus aureus NCTC8325); assay: EMSA; conditions: phosphorylated by acetyl phosphate or AirS, no obvious difference from unphosphorylated AirR; recombinant protein; residues 1-207; label: digoxigenin; probe letters rebuilt from the primers and the genome

Sequence	binding result [1]	binding result ([1]; competed by 50x unlabeled probe)	binding result [2]
GTCATTTCGTTTTCCTCCAATGATATATCAGGGTTTGCTACCTTAATATAAATTAATATTGATTTAGTCCTATTGTTAATTGATTTATTCGCATCTTTGAATCTTAATAGTATCACATTTTAATGCTATTTTGCATTTTAAAAACGAGGACTTATGTGTCTGTATCTATGTTGATTCATTTATAATCAGAACAATATTCCCTTCTATTTTATTCCTAATTCAAATTGAAATCTATAGCTGATATCACTGTGATATTCTAGCTAATTTTTAAAAAGTCATGTAAAATTGATATAAACATTAGTGAGTATAAAAGGAGTTTG (double strand) [ddl promoter (p-ddl)]	binds		
TTTCCATTATTTACCTCCCTTAAAAATTTTCATTAAAATTGGTATTATATATATAGTATTTACATATTACATATCGTTTAAACAATTAATTACTTTTAAACCGCATTATTTTCGCCTTTTTATTTATATGAAATTAAAAATAATTATACTCTAAAGTAGTAATAGTTTGTGAAATGAGTATCAATCTTAATATTTTCTTTATTTAAAAAAATGATTGTCTAGTTTGTATCTCTCTGAAGATTTGGCAATAAATAAAAGCCGATAACCGTATAATGATTATCGACTTAAAGTTTATGTGGCATTTTTTACTTTTGTAATTTCAGGTGAGTTAGATGA (double strand) [cap promoter (p-cap5A)]		binds	binds
